{"source": "patent US20230277714A1", "about": "“METHOD FOR SANITIZING THE AIR” (The Procter & Gamble Company, priority 2022, published 2023)", "key": {"[1]": {"assay": "Total mass of 0.1-3 μm liquid particles in air, TEG pipetted onto hotplate @ 250° C., with or without HEPA filtration"}, "[2]": {"assay": "Total mass of 0.1-3 μm liquid particles in air, TEG dosed from syringe pump onto hotplate @ 33 mg/min", "details": "syringe pump 33 mg/min"}, "[3]": {"assay": "Total TEG in air as measured by GC/MS, TEG pipetted onto hotplate @ 250° C."}, "[4]": {"assay": "Total TEG in the air by GC/MS, sanitizing system with heated or unheated inlet air and filtration variants", "details": "for Total TEG in the air as measured by GC/MS: no in-line filtration"}}, "note": "Several values for one entry are separate records, joined by “and”; a condition that tells them apart may be missing. Equal values may be shown once.", "data": [{"compound": "OCCOCCOCCO", "note": "[TEG, triethylene glycol]", "values": [{"measurement": "Total mass of 0.1-3 μm diameter liquid particles in air", "setting": "[1]; Nil Filter, After 10 min of filtration Time = 21 min", "value": "0.25 mg/m^3 and 0.22 mg/m^3 and 0.23 mg/m^3"}, {"measurement": "Total mass of 0.1-3 μm diameter liquid particles in air", "setting": "[1]; Nil Filter, After 15 min of filtration Time = 26 min", "value": "0.17 mg/m^3 and 0.15 mg/m^3 and 0.16 mg/m^3"}, {"measurement": "Total mass of 0.1-3 μm diameter liquid particles in air", "setting": "[1]; Nil Filter, Filter powered on Time = 11 min", "value": "0.83 mg/m^3 and 0.80 mg/m^3 and 0.68 mg/m^3 and 0.72 mg/m^3"}, {"measurement": "Total mass of 0.1-3 μm diameter liquid particles in air", "setting": "[1]; Nil Filter, Pre-Filter Time = 7 min", "value": "1.36 mg/m^3 and 1.25 mg/m^3 and 1.17 mg/m^3 and 1.22 mg/m^3"}, {"measurement": "Total mass of 0.1-3 μm diameter liquid particles in air", "setting": "[1]; Post-Filtration", "value": 0.008, "unit": "mg/m3"}, {"measurement": "Total mass of 0.1-3 μm diameter liquid particles in air", "setting": "[1]; Pre-Filtration", "value": 1.12, "unit": "mg/m3"}, {"measurement": "Total mass of 0.1-3 μm diameter liquid particles in air", "setting": "[1]; With Filter, After 10 min of filtration Time = 21 min", "value": "0.02 mg/m^3 and 0.03 mg/m^3"}, {"measurement": "Total mass of 0.1-3 μm diameter liquid particles in air", "setting": "[1]; With Filter, After 15 min of filtration Time = 26 min", "value": "0.005 mg/m^3 and 0.006 mg/m^3 and 0.008 mg/m^3"}, {"measurement": "Total mass of 0.1-3 μm diameter liquid particles in air", "setting": "[1]; With Filter, Filter powered on Time = 11 min", "value": "0.48 mg/m^3 and 0.59 mg/m^3 and 0.71 mg/m^3 and 0.70 mg/m^3 and 0.91 mg/m^3"}, {"measurement": "Total mass of 0.1-3 μm diameter liquid particles in air", "setting": "[1]; With Filter, Pre-Filter Time = 7 min", "value": "1.17 mg/m^3 and 1.15 mg/m^3 and 1.68 mg/m^3 and 0.90 mg/m^3 and 1.34 mg/m^3 and 1.13 mg/m^3"}, {"measurement": "Total mass of 0.1-3 μm diameter liquid particles in air", "setting": "[2]; Nil Filter, After 10 min of filtration", "value": 2.36, "unit": "mg/m^3"}, {"measurement": "Total mass of 0.1-3 μm diameter liquid particles in air", "setting": "[2]; Nil Filter, After 15 min of filtration", "value": 1.76, "unit": "mg/m^3"}, {"measurement": "Total mass of 0.1-3 μm diameter liquid particles in air", "setting": "[2]; Nil Filter, After 20 min of filtration", "value": 0.81, "unit": "mg/m^3"}, {"measurement": "Total mass of 0.1-3 μm diameter liquid particles in air", "setting": "[2]; Nil Filter, Pre-Filter Time = 30 min", "value": 2.94, "unit": "mg/m^3"}, {"measurement": "Total mass of 0.1-3 μm diameter liquid particles in air", "setting": "[2]; With Filter, After 10 min of filtration", "value": "0.25 mg/m^3 and 0.33 mg/m^3"}, {"measurement": "Total mass of 0.1-3 μm diameter liquid particles in air", "setting": "[2]; With Filter, After 15 min of filtration", "value": "0.02 mg/m^3 and 0.03 mg/m^3"}, {"measurement": "Total mass of 0.1-3 μm diameter liquid particles in air", "setting": "[2]; With Filter, After 20 min of filtration", "value": "0.003 mg/m^3 and 0.005 mg/m^3"}, {"measurement": "Total mass of 0.1-3 μm diameter liquid particles in air", "setting": "[2]; With Filter, Pre-Filter Time = 30 min", "value": "3.47 mg/m^3 and 3.70 mg/m^3"}, {"measurement": "Total TEG in air as measured by GC/MS", "setting": "[3]; Post-Filtration", "value": 3.85, "unit": "mg/m3"}, {"measurement": "Total TEG in air as measured by GC/MS", "setting": "[3]; Pre-Filtration", "value": 34.42, "unit": "mg/m3"}, {"measurement": "Total TEG in the air as measured by GC/MS", "setting": "[4]; Fan inlet air at 70 F. (unheated), after 10 min of HEPA filtration, Time = 44 min", "value": 1.75, "unit": "mg/m^3"}, {"measurement": "Total TEG in the air as measured by GC/MS", "setting": "[4]; Fan inlet air at 70 F. (unheated), before HEPA filtration, Time = 5 min", "value": 15.54, "unit": "mg/m^3"}, {"measurement": "Total TEG in the air as measured by GC/MS", "setting": "[4]; Fan inlet air at 70 F. (unheated), before HEPA filtration, Time = 15 min", "value": 10.88, "unit": "mg/m^3"}, {"measurement": "Total TEG in the air as measured by GC/MS", "setting": "[4]; Fan inlet air at 70 F. (unheated), before HEPA filtration, Time = 30 min", "value": 1.96, "unit": "mg/m^3"}, {"measurement": "Total TEG in the air as measured by GC/MS", "setting": "[4]; Fan inlet air at 150 F. (heated), after 10 min of HEPA filtration, Time = 44 min", "value": 2.62, "unit": "mg/m^3"}, {"measurement": "Total TEG in the air as measured by GC/MS", "setting": "[4]; Fan inlet air at 150 F. (heated), before HEPA filtration, Time = 5 min", "value": 34.05, "unit": "mg/m^3"}, {"measurement": "Total TEG in the air as measured by GC/MS", "setting": "[4]; Fan inlet air at 150 F. (heated), before HEPA filtration, Time = 15 min", "value": 17.29, "unit": "mg/m^3"}, {"measurement": "Total TEG in the air as measured by GC/MS", "setting": "[4]; Fan inlet air at 150 F. (heated), before HEPA filtration, Time = 30 min", "value": 4.09, "unit": "mg/m^3"}, {"measurement": "Total TEG in the air", "setting": "[4]; Heated Inlet Air, No In-Line Filtration, Off-line RABBIT AIR HEPA filter running continuously during test, Timepoint 0 min", "value": 0.00, "unit": "mg/m^3"}, {"measurement": "Total TEG in the air", "setting": "[4]; Heated Inlet Air, No In-Line Filtration, Off-line RABBIT AIR HEPA filter running continuously during test, Timepoint 5 min", "value": 17.01, "unit": "mg/m^3"}, {"measurement": "Total TEG in the air", "setting": "[4]; Heated Inlet Air, No In-Line Filtration, Off-line RABBIT AIR HEPA filter running continuously during test, Timepoint 15 min", "value": 4.86, "unit": "mg/m^3"}, {"measurement": "Total TEG in the air", "setting": "[4]; Heated Inlet Air, No In-Line Filtration, Off-line RABBIT AIR HEPA filter running continuously during test, Timepoint 30 min", "value": 2.77, "unit": "mg/m^3"}, {"measurement": "Total TEG in the air", "setting": "[4]; Heated Inlet Air, No In-Line Filtration, Off-line RABBIT AIR HEPA filter running continuously during test, Timepoint 44 min", "value": 3.16, "unit": "mg/m^3"}, {"measurement": "Total TEG in the air", "setting": "[4]; Heated Inlet Air, No In-line Filtration, Off-line, Timepoint 0 min", "value": 0.00, "unit": "mg/m^3"}, {"measurement": "Total TEG in the air", "setting": "[4]; Heated Inlet Air, With In-Line Nonwoven filter, Off-line, Timepoint 0 min", "value": 0.00, "unit": "mg/m^3"}, {"measurement": "Total TEG in the air", "setting": "[4]; Heated Inlet Air, With In-Line Nonwoven filter, Off-line, Timepoint 5 min", "value": 6.27, "unit": "mg/m^3"}, {"measurement": "Total TEG in the air", "setting": "[4]; Heated Inlet Air, With In-Line Nonwoven filter, Off-line, Timepoint 15 min", "value": 7.84, "unit": "mg/m^3"}, {"measurement": "Total TEG in the air", "setting": "[4]; Heated Inlet Air, With In-Line Nonwoven filter, Off-line, Timepoint 30 min", "value": 4.20, "unit": "mg/m^3"}, {"measurement": "Total TEG in the air", "setting": "[4]; Heated Inlet Air, With In-Line Nonwoven filter, Off-line, Timepoint 44 min", "value": 3.30, "unit": "mg/m^3"}, {"measurement": "Total TEG in the air", "setting": "[4]; Unheated Inlet Air, No In-Line Filtration, Off-line RABBIT AIR HEPA filter running continuously during test, Timepoint 0 min", "value": 0.00, "unit": "mg/m^3"}, {"measurement": "Total TEG in the air", "setting": "[4]; Unheated Inlet Air, No In-Line Filtration, Off-line RABBIT AIR HEPA filter running continuously during test, Timepoint 5 min", "value": 10.22, "unit": "mg/m^3"}, {"measurement": "Total TEG in the air", "setting": "[4]; Unheated Inlet Air, No In-Line Filtration, Off-line RABBIT AIR HEPA filter running continuously during test, Timepoint 15 min", "value": 0.49, "unit": "mg/m^3"}, {"measurement": "Total TEG in the air", "setting": "[4]; Unheated Inlet Air, No In-Line Filtration, Off-line RABBIT AIR HEPA filter running continuously during test, Timepoint 30 min", "value": 0.41, "unit": "mg/m^3"}, {"measurement": "Total TEG in the air", "setting": "[4]; Unheated Inlet Air, No In-Line Filtration, Off-line RABBIT AIR HEPA filter running continuously during test, Timepoint 44 min", "value": 0.00, "unit": "mg/m^3"}, {"measurement": "Total TEG in the air", "setting": "[4]; Unheated Inlet Air, No In-line Filtration, Off-line, Timepoint 0 min", "value": 0.00, "unit": "mg/m^3"}, {"measurement": "Total TEG in the air", "setting": "[4]; Unheated Inlet Air, With In-Line Nonwoven filter, Off-line, Timepoint 0 min", "value": 0, "unit": "mg/m^3"}, {"measurement": "Total TEG in the air", "setting": "[4]; Unheated Inlet Air, With In-Line Nonwoven filter, Off-line, Timepoint 5 min", "value": 9.44, "unit": "mg/m^3"}, {"measurement": "Total TEG in the air", "setting": "[4]; Unheated Inlet Air, With In-Line Nonwoven filter, Off-line, Timepoint 15 min", "value": 3.03, "unit": "mg/m^3"}, {"measurement": "Total TEG in the air", "setting": "[4]; Unheated Inlet Air, With In-Line Nonwoven filter, Off-line, Timepoint 30 min", "value": 0.10, "unit": "mg/m^3"}, {"measurement": "Total TEG in the air", "setting": "[4]; Unheated Inlet Air, With In-Line Nonwoven filter, Off-line, Timepoint 44 min", "value": 0.06, "unit": "mg/m^3"}]}]}
